Compound potency records, mixed from different reports. Data source: NIAID ChemDB in PubChem.

Shared fields: whole-cell or culture tests; species: HIV-1; cell line: C8166; measure: fold resistance

Blank or dashed fields: not listed here. Neighbouring rows are from separate reports. Fold resistance has wild type as its base.

smiles,strain or isolate,changes,read by,result
CCN1c2ncc(CCOc3ccc(C(=O)N=c4ccccn4O)cc3C)cc2C(=O)Nc2c(C)ccnc21,,RT-K103N Y181C,p24,1
CC(C)(C)c1ccc(-n2nnnc2SCC(=O)Nc2ccccc2Cl)c(Br)c1,RT-K103N Y181C,1(RT-K103N Y181C),luciferase,>2
CCN1c2ncc(CCOc3ccc(-c4ccc(C(=O)O)c(Cl)c4)cc3C)cc2C(=O)N(C)c2cccnc21,,RT-K103N Y181C,p24,>1
O=C(CSc1nnnn1-c1cccc2ccccc12)Nc1cccc(Cl)c1Cl,RT-K103N Y181C,1(RT-K103N Y181C),p24,>2
CCN1c2ncc(CCOc3ccc(-c4cc(C(=O)O)c[n+]([O-])c4)cc3C)cc2C(=O)N(C)c2cccnc21,,RT-K103N Y181C,p24,1
CCN1c2ncc(CCOc3ccc(C(=O)O)c4ccccc34)cc2C(=O)N(C)c2ccc(F)nc21,,RT-K103N Y181C,p24,1
Cc1cc(C)cc(S(=O)(=O)c2c(C(=O)/C=C/C(N)=O)[nH]c3ccc(Cl)cc23)c1,,RT-K103R,cytopathic effect / MTT,>1666
Cc1ccccc1S(=O)(=O)c1c(C(N)=O)[nH]c2ccc(Cl)cc12,Efavirenz-resistant (RT K103R V179D P225H),RT-K103R V179D P225H,cytopathic effect / MTT,520
CCN1c2ncc(CCOc3ccc(C(=O)O)c4c3CCN(C(=O)OC)C4)cc2C(=O)N(C)c2cccnc21,,RT-K103N Y181C,p24,1
Cc1cc(C)cc(S(=O)(=O)c2c(C(N)=O)[nH]c3c(Cl)cc(Cl)cc23)c1,IIIB,RT-K103R,p24,>83
CCN1c2ncc(CCOc3cccc4c3CNC(=O)N4CC(=O)O)cc2C(=O)N(C)c2cccnc21,,RT-K103N Y181C,p24,1
CCN1c2ncc(CCOc3ccc(NC(=O)c4ccccc4C(=O)O)cc3C)cc2C(=O)N(C)c2cccnc21,,RT-K103N Y181C,p24,>1
CCN1c2ncc(CCOc3cccc4c3CNC(=O)N4)cc2C(=O)N(C)c2cccnc21,,RT-K103N Y181C,p24,1
Cc1cc(C)c(-n2nnnc2SCC(=O)Nc2ccc3c(c2)OCO3)c(C)c1,RT-K103N Y181C,1(RT-K103N Y181C),p24,>2
Cc1cc(C)cc(S(=O)(=O)c2c(C(N)=O)[nH]c3ccc(Cl)cc23)c1,Efavirenz-resistant (RT K103R V179D P225H),RT-K103R V179D P225H,cytopathic effect / MTT,40
CCN1c2ncc(CCOc3cccc4c3CNC(=O)N4)cc2C(=O)Nc2c(C)ccnc21,,RT-K103N Y181C,p24,>1
CCN1c2ncc(CCOc3ccc(-c4csc(C(=O)O)c4)cc3C)cc2C(=O)N(C)c2cccnc21,,RT-K103N Y181C,p24,>1
C=C1c2cc(CCOc3ccc(NS(C)(=O)=O)c4ccccc34)cnc2N(CC)c2ncccc2N1C,,RT-K103N Y181C,p24,1
Cc1ccc(S(=O)(=O)c2c(C(N)=O)[nH]c3ccc(Cl)cc23)cc1,Efavirenz-resistant (RT K103R V179D P225H),RT-K103R V179D P225H,cytopathic effect / MTT,9300
CCN1c2ncc(CCOc3ccc(-c4cccc[n+]4[O-])cc3C)cc2C(=O)N(C)c2cccnc21,,RT-K103N Y181C,p24,1
NC(=O)c1[nH]c2ccc(Cl)cc2c1S(=O)(=O)c1ccccc1,EFV-resistant (RT K103R V179D P225H),RT-K103R V179D P225H,p24,900
CCN1c2ncc(CCOc3cccc4c3CNC(=O)N4C)cc2C(=O)N(C)c2cccnc21,,RT-K103N Y181C,p24,1
CCN1c2nc(C(F)(F)F)ccc2NC(=O)c2cc(CCOc3cc[n+]([O-])c4ccccc34)cnc21,,RT-V106A,p24,51.9